The values that follow come from PubChem BioAssay AID1347131 (National Center for Advancing Translational Sciences (NCATS), 2019).

“And” between values parts separate entries of the source, which are not always exact repeats. Equal values may be shown once. The list shows a part of the results. Results filed as inconclusive are left out. The source made the active and inactive calls. Calls come from the whole dose curve; tested in HEK293 reporter line.

The assay can be described thus: qHTS Assay for Foot and Mouth Disease Virus Antivirals: Primary Screen against the MLPCN compound library. Note: nearly all actives have a fitted effect of over 55% in size. The following applies: FMDV antiviral cell-based qHTS; at 57.9 µM (top of the series). In general terms: In qHTS, concentration-response curves come from the screen itself.
Take `O=C(Nc1cc([As](=O)(O)O)ccc1O)c1ccccc1`: the activity, negative = inhibition is inactive: -8.33%.
On to `O=P1(N(CCCl)CCCl)OCCCS1` (centres undefined), for which the activity, negative = inhibition is inactive: 12.4%.
As for `O=C(O)CNc1ccc([As](=O)(O)O)cc1`, the figure is inactive: -3.87%; as for `O=[N+]([O-])c1cccc(NC2=NCC(CBr)S2)c1` (centres undefined), inactive: 9.35%.
Take `COC(=O)C1(C)COP(=O)(Nc2ccccc2)OC1` (centres undefined): the activity, negative = inhibition was inactive: -0.023%.
On to `O=[N+]([O-])c1ncn(CCn2ncnc2[N+](=O)[O-])n1`, for which the activity, negative = inhibition was inactive: -7.33%.
In the case of `O=[N+]([O-])c1cc([N+](=O)[O-])c(CCNc2ccccc2)c([N+](=O)[O-])c1` it was inactive: -22%.
Regarding `Cc1ccc(NP(=O)(Oc2ccccc2)Oc2ccccc2)nc1`, the activity, negative = inhibition was inactive: 45.8%.
As for `O=[N+]([O-])c1cccc2n[nH]nc12`, the activity, negative = inhibition was inactive: 19.6%.
For `CC(=O)N1C2C3N(C(C)=O)C1C1N(C(C)=O)C(C(N1C(C)=O)N3C(C)=O)N2C(C)=O`, the activity, negative = inhibition was inactive: 9.31%.
As for `COc1ccc(C2=NCC(CBr)S2)cc1` (centres undefined), the figure is inactive: 25.4%.
In the case of `c1cc(-c2nn[nH]n2)ccc1-c1nn[nH]n1`, the activity, negative = inhibition is inactive: -15.5%.
`CC(=O)C1=CCCC2CCC1N2` (centres undefined): the activity, negative = inhibition is inactive: -12.9%.
In the case of `CC1CCN(C(=O)Oc2c(Cl)cc(Cl)c3cccnc23)CC1` it was inactive: 13.1%; in that of `CN(C)C(=O)OCCc1n(C)cc[n+]1C`, inactive: -4.08%.
As to `CC(C)=N/N=C(\N)N[N+](=O)[O-]`, the activity, negative = inhibition was inactive: -9.32%.
On to `CC(C)c1nc(Nc2ccccc2)n(P(=O)(N(C)C)N(C)C)n1`, for which the activity, negative = inhibition is inactive: -18.3%.
Take `CCN(/C(=N/P(=O)(N1CCOCC1)N1CCOCC1)N1CCOCC1)c1ccc(OC)cc1`: the activity, negative = inhibition is inactive: -2.98%.
In the case of `Nc1ccc([As](=O)(O)c2ccc(N)cc2)cc1`, the activity, negative = inhibition was inactive: -0.643%.
For `Clc1ccc(Cl)c(NC2=NCC(CBr)S2)c1` (centres undefined), the activity, negative = inhibition is inactive: -8.04%.
Consider `CN1CCCC(OC(=O)C(c2ccccc2)c2ccccc2)C1` (centres undefined), for which the activity, negative = inhibition was inactive: -15.4%.
In the case of `Cc1ccc(OP(=O)(Nc2nccs2)Oc2ccc(C)cc2)cc1`, the activity, negative = inhibition is inactive: 34.4%.
For the molecule `COc1ccccc1OP(=O)(Nc1ccc(C)cn1)Oc1ccccc1OC`, the activity, negative = inhibition is inactive: -16.5%.
As for `Cc1ccc(N/C(=N/P(=O)(N2CCOCC2)N2CCOCC2)N2CCOCC2)cc1`, the figure is inactive: 5.06%.
Regarding `CN(C(=O)Cc1ccc(Cl)c(Cl)c1)[C@H]1CCCC[C@H]1N1CCCC1`, the activity, negative = inhibition was inactive: -10.3%.
As to `NC(=O)c1cc([N+](=O)[O-])cc([N+](=O)[O-])c1N`, the activity, negative = inhibition was inactive: -11.8%.
Regarding `O=[N+]([O-])C1C(O)C(O)C([N+](=O)[O-])C(O)C1O` (centres undefined), the activity, negative = inhibition was inactive: -20.8%.
As for `O=C(NC(Sc1ccncn1)C(Cl)(Cl)Cl)c1ccccc1` (centres undefined), the activity, negative = inhibition is inactive: 4.08%.
Turning to `Nc1cc(N)c2nonc2c1[N+](=O)[O-]`, the activity, negative = inhibition was inactive: -3.26%.
On to `Cc1ccc(NP(=O)(Oc2ccccc2F)Oc2ccccc2F)nc1`, for which the activity, negative = inhibition is inactive: 7.99%.
As for `CN(C(=O)Cc1ccc(Cl)c(Cl)c1)[C@H]1CCCC[C@@H]1N1CCCC1`, the figure is inactive: -17.1% [middle of 7 runs]; as for `CCOP(=O)(Nc1ccccc1)OCC`, inactive: -16.9%.
As for `Cc1cc(SC(NC(=O)c2ccc(F)cc2)C(Cl)(Cl)Cl)ncn1` (centres undefined), the figure is inactive: 0%.
Turning to `CN(C)P(=O)(N(C)C)n1c(Nc2ccccc2)nnc1-c1ccccc1`, the activity, negative = inhibition was inactive: 29%.
For `O=P(Nc1nc2ccc(Cl)cc2s1)(c1ccccc1)c1ccccc1`, the activity, negative = inhibition is inactive: 31.4%.
`CCCC1OP(N)(=O)OCC1CC` (centres undefined): the activity, negative = inhibition was inactive: 30.4%.
As to `O=C(O)c1ccccc1[As](=O)(O)O`, the activity, negative = inhibition is inactive: -7.17%.
Take `CC(=O)Nc1ccc([As](=O)(O)O)cc1`: the activity, negative = inhibition was inactive: -4.05%.
With `Nc1cccc2ccc([As](=O)(O)O)cc12`, the activity, negative = inhibition is inactive: -9.12%.
Consider `CCN(N=Nc1nonc1N)c1nonc1N`, for which the activity, negative = inhibition is inactive: -9.36%.
Turning to `O=P1(N(CCCl)CCCl)OCCC2CCCCN21` (centres undefined), the activity, negative = inhibition is inactive: 0.551%.
Consider `Cc1ccc(NP(=O)(Oc2cccc(C)c2)Oc2cccc(C)c2)nc1`, for which the activity, negative = inhibition was inactive: 22.8%.
With `c1ccc(-c2nn[nH]n2)c(-c2nn[nH]n2)c1`, the activity, negative = inhibition was inactive: -3.2%.
Turning to `CCNC(=S)/N=C(\N)N[N+](=O)[O-]`, the activity, negative = inhibition was inactive: -10.4%.
As for `O=C(NC1CCS(=O)(=O)C1)NP(=S)(Oc1ccccc1)Oc1ccccc1` (centres undefined), the figure is inactive: 107%; as for `CN(C)C(=O)Oc1noc2ccccc12`, inactive: -6.7%; as for `CC(NC(=O)COC(=O)C(O)(c1ccccc1)c1ccccc1)c1ccccc1` (centres undefined), inactive: -36.4%.
Consider `CCC(=O)N1C2C3N(C(=O)CC)C1C1N(C(=O)CC)C(C(N1C(=O)CC)N3C(=O)CC)N2C(=O)CC`, for which the activity, negative = inhibition is inactive: -0.0905%.
As for `O=C(OC1CN2CCC1CC2)c1ccccc1` (centres undefined), the activity, negative = inhibition was inactive: -10.2%.
Consider `Cc1ccc(OP(=O)(Nc2ccccn2)Oc2ccc(C)cc2)cc1`, for which the activity, negative = inhibition is inactive: -18.8%.
`CC(=O)NC(SC(=S)N(CC(C)C)CC(C)C)C(Cl)(Cl)Cl` (centres undefined): the activity, negative = inhibition is inactive: 0%.
For `COC(=O)c1cc2c(s1)N=C(c1ccccc1)N(C)P2(=O)N1CCOCC1` (centres undefined), the activity, negative = inhibition is inactive: -5.69%.
In the case of `CC(C)(C)C(=O)NC(Sc1ccccc1)C(Cl)(Cl)Cl` (centres undefined) it was inactive: -17.8%; in that of `CCc1cc(O)c([N+](=O)[O-])c(C)c1[N+](=O)[O-]`, inactive: -25.5%; in that of `CCOc1ccc(C2=NCC(CBr)S2)cc1` (centres undefined), inactive: 6.65%.
For the molecule `O=P1(Nc2nc3ccc(Cl)cc3s2)COc2ccccc2O1` (centres undefined), the activity, negative = inhibition was inactive: 15%.
`CC(=O)Nc1ccc(Oc2c([N+](=O)[O-])cc([N+](=O)[O-])cc2[N+](=O)[O-])cc1`: the activity, negative = inhibition was inactive: -8.79%.
As for `CC(=O)Nc1ccc([As](=O)(O)O)c(O)c1`, the figure is inactive: -13.9%; as for `C[C@@H]1C=CCP(=O)(Oc2ccccc2)O1` (some centres undefined), inactive: -6.36%.
For the molecule `C[C@H]1OP(=O)(Oc2ccccc2)C[C@@H]2O[C@@H]21` (some centres undefined), the activity, negative = inhibition is inactive: -14.1%.
`Cc1ccccc1CN(C)C(=O)COC(=O)C(O)(c1ccccc1)c1ccccc1`: the activity, negative = inhibition is inactive: -0.809%.
With `COC(=O)C1(C)COP(=O)(NCc2ccccc2)OC1` (centres undefined), the activity, negative = inhibition was inactive: -20.8%.
Consider `N#C/C(=C\c1ccc(N(CCBr)CCBr)cc1)C(N)=O`, for which the activity, negative = inhibition was inactive: -37.5%.
For the molecule `CC(=O)c1ccc(N2CC2c2ccncc2)cc1` (centres undefined), the activity, negative = inhibition is inactive: -1.46%.
Consider `c1nnnn1CCn1cnnn1`, for which the activity, negative = inhibition is inactive: 1.69%.
In the case of `CC(C)C(=O)NC(Sc1ccccc1)C(Cl)(Cl)Cl` (centres undefined), the activity, negative = inhibition was inactive: -12.1%.
`O=P(Nc1nccs1)(c1ccccc1)c1ccccc1`: the activity, negative = inhibition was inactive: -9.77%.
As to `C[C@H]1OP(=O)(Oc2ccccc2)[C@H](O)[C@H](O)[C@H]1N=[N+]=[N-]` (some centres undefined), the activity, negative = inhibition was inactive: -10.3%.
For the molecule `O=P(Nc1nc2ccccc2s1)(c1ccccc1)c1ccccc1`, the activity, negative = inhibition is inactive: 74.6%.
For `O=P(Nc1ccccn1)(c1ccc(Br)cc1)c1ccc(Br)cc1`, the activity, negative = inhibition is inactive: 66.4%.
As to `CN(C)C1(CNC(=O)c2ccc(Cl)c(S(N)(=O)=O)c2)CCCCC1`, the activity, negative = inhibition is inactive: -7.46%.
For the molecule `Nc1ccc(CCCCOc2ccccc2)cc1`, the activity, negative = inhibition is inactive: 32%.
`COc1ccc(N)c([N+](=O)[O-])c1[N+](=O)[O-]`: the activity, negative = inhibition was inactive: 0.924%.
For `O=C(OC1CN2CCC1CC2)c1cccc(Cl)c1` (centres undefined), the activity, negative = inhibition was inactive: -5.13%.
As for `Nc1ccc([As](=O)(O)c2ccc([N+](=O)[O-])cc2)cc1`, the figure is inactive: 25.6%.
For the molecule `C(Cc1nn[nH]n1)Cc1nn[nH]n1`, the activity, negative = inhibition was inactive: -16.1%.
With `O=[As](O)(c1ccccc1)c1ccc(O)cc1`, the activity, negative = inhibition was inactive: 6.37%.
Regarding `O=[N+]([O-])c1ncn(CCn2cnc([N+](=O)[O-])n2)n1`, the activity, negative = inhibition is inactive: -11.1%.
On to `CN(C)C1(CNC(=O)c2ccc(S(C)(=O)=O)cc2)CCCCC1`, for which the activity, negative = inhibition is inactive: 1.08%.
For `CCCC1OP(=O)(Nc2ccccc2)OCC1CC` (centres undefined), the activity, negative = inhibition was inactive: 11.4%.
With `O=C(/C=C/c1ccccc1)OC1CN2CCC1CC2` (centres undefined), the activity, negative = inhibition is inactive: 5.87%.
As for `Cc1ccc(C(=O)OC2CN3CCC2CC3)cc1` (centres undefined), the figure is inactive: 12.4%.
As for `Nc1cccc([As](=O)(O)c2ccccc2)c1`, the figure is inactive: -6.58%.
With `O=P1(Nc2ccc(Br)cn2)COc2ccccc2OC1`, the activity, negative = inhibition was inactive: 54.3%.
As for `NS(=O)(=O)c1cccc(NC(=O)COC(=O)C(O)(c2ccccc2)c2ccccc2)c1`, the figure is inactive: -23.4%; as for `O=[As](O)(c1cccs1)c1cccs1`, inactive: -3.79%; as for `Cc1ccc(OCC(=O)OC2CN3CCC2CC3)cc1` (centres undefined), inactive: -19.4%.
Regarding `Cc1ccc(S(=O)(=O)N(CCCN)CCCc2c(C)nc(N)[nH]c2=O)cc1`, the activity, negative = inhibition is inactive: -5.21%.
With `O=P1(Nc2ncccn2)COc2ccccc2OC1`, the activity, negative = inhibition was inactive: -3.94%.
For `CC(C)(C)C(=O)NC(Sc1ncccn1)C(Cl)(Cl)Cl` (centres undefined), the activity, negative = inhibition is inactive: -23.3%.
On to `O=P1(N(CCCl)CCCl)NCCC(C(F)(F)F)O1` (centres undefined), for which the activity, negative = inhibition was inactive: -10%.
Regarding `Clc1n[nH]nc1-c1nn[nH][15n]1`, the activity, negative = inhibition was inactive: -0.709%.
As for `CCOP(=O)(NC(=NC(C)c1ccccc1)NC(C)c1ccccc1)OCC` (centres undefined), the figure is inactive: -1.38%; as for `O=P1(Nc2ccccn2)COc2ccccc2OC1`, inactive: 24.3%; as for `CN(CCCl)Cc1cc(Cl)c(NC2=NCCN2)c(Cl)c1`, inactive: -5.84% and inactive: 9.51%.
In the case of `CCOP(=O)(Nc1ccc(C)cn1)OCC` it was inactive: 1.59%.
As to `CC(C)/C=N\N=C(\N)N[N+](=O)[O-]`, the activity, negative = inhibition was inactive: 15.5%.
For `CN(C(=O)Cc1ccc(Cl)c(Cl)c1)[C@@H]1CCCC[C@H]1N1CCCC1`, the activity, negative = inhibition is inactive: 9.31%.
For the molecule `CC1(CBr)Cn2c(nc3ccccc3c2=O)S1` (centres undefined), the activity, negative = inhibition was inactive: -4.65%.
Regarding `COc1ccccc1CNC(=O)COC(=O)C(O)(c1ccccc1)c1ccccc1`, the activity, negative = inhibition was inactive: -18.6%.
Turning to `O=[As](O)(c1cccc(O)c1)c1cccc(O)c1`, the activity, negative = inhibition was inactive: -8.69%.
Turning to `Cc1cccc(OCC(=O)OC2CN3CCC2CC3)c1` (centres undefined), the activity, negative = inhibition was inactive: -17.5%.
With `O=C(OC1CN2CCC1CC2)c1ccc(Cl)cc1` (centres undefined), the activity, negative = inhibition is inactive: -10.5%.
On to `CS(=O)(=O)c1ccc(Cl)c(NC(=O)COC(=O)C(O)(c2ccccc2)c2ccccc2)c1`, for which the activity, negative = inhibition was inactive: 0%.
